Anti-infective test results gathered from many reports (values: NIAID ChemDB through PubChem).

Common to all: whole-cell or culture tests; agent: HIV-1; measure: EC50

ECn is the concentration giving n% inhibition of infection, replication or growth. Lines come from different laboratories, so protocols vary. Blank or dashed fields: not listed here.

structure,strain,mutations,cells,read by,setting,result
O=C1O[C@H]2[C@@H]3OC(=O)c4cc(O)c(O)c(O)c4-c4c(cc(O)c(O)c4O)C(=O)OC[C@H]2O[C@@H](OC(=O)c2cc(O)c(O)c(O)c2)[C@@H]3OC(=O)c2cc(O)c(O)c3c2[C@@H]2C1=CC(=O)[C@](O)(O3)C2(O)O,NNRTI-resistant (RT Y188H) ARP1011,RT-Y188H,MAGI,-,-,0.89 µg/mL
Cc1cn([C@H]2C[C@H](N=[N+]=[N-])[C@@H](CO)O2)c(=O)[nH]c1=O,BR-92-025 (subtype C),-,PBMCs,p24 / ELISA / antigen,4 d,0.26 µM
CN[C@@H]1[C@H](O[C@@H]2OC[C@@H](O)[C@H](O)[C@H]2O)[C@@H](O)[C@H](O[C@H]2c3cc(C)c(C(=O)N[C@H](C)C(=O)O)c(O)c3-c3c(cc4c(c3O)C(=O)c3cc(OC)cc(O)c3C4=O)[C@@H]2O)O[C@@H]1C,-,-,HUT-78/SUP T1,syncytia / cell fusion,-,3.4 µg/mL
COc1cccc(C(=O)CC2(O)C(=O)Nc3ccc(Cl)cc32)c1,IIIB,-,C8166,cytopathic effect / syncytia,-,50.11 µM
CC(=O)/C=C/C[C@@H](C)[C@H]1CC[C@@]2(C)[C@@H]3CC[C@H]4C(C)(C)[C@@H](O)CCC45CC35CC[C@]12C,IIIB,-,HOS.R5 + HOS,GFP,-,>5.9 µM
COc1ccc2cc1Oc1ccc(cc1)C[C@H]1c3c(cc4c(c3Oc3cc5c(cc3OC)CCN(C)[C@@H]5C2)OCO4)CCN1C,-,-,U1/HIV-1 (+PMA 10 ng/mL) + U1,p24,chronic infection,0.016 µg/mL
Cc1ccc2nc(-c3ccc(NCCOCCOCCOCCOCCOCCO)cc3)sc2c1,ADA,-,CEM-M7,luciferase,-,6.6 µg/mL
O=C1CN=C(c2ccc[nH]2)c2cc(Cl)ccc2N1,BAL R5,-,U87.CD4-CCR5+ + U87.CD4,p24,-,1.8 µg/mL
O=C(CC1(O)C(=O)Nc2ccc(Br)cc21)c1ccccc1Cl,IIIB,-,C8166,cytopathic effect / syncytia,-,10.79 µM
S=C(NCCc1cccs1)Nc1ccc(Br)cn1,H112-2 Clinical isolate,-,HT4 + HeLa,plaque count,-,0.0006 µM
CC(CCC[C@@H](C)[C@H]1CC[C@@]2(C)[C@@H]3CC[C@H]4C(C)(C)C(=O)CCC45CC35CC[C@]12C)C(=O)O,IIIB,-,HOS.R5 + HOS,GFP,-,>43.9 µM
Nc1ncnc2c1ncn2[C@@H]1O[C@H](OCP(=O)(O)O)C=C1F,-,-,Macrophages,p24 / ELISA / antigen,-,2.5 µM
CC(C)=CCN1Cc2cc(Cl)cc3[nH]c(=S)n(c23)C[C@@H]1C,SK1,-,CEM + CEM-SS,cytopathic effect / MTT,-,0.034 µM
O=C(CC1(O)C(=O)Nc2ccccc21)c1ccccc1,IIIB,-,C8166,cytopathic effect / syncytia,-,260 µM
CC1=C(C(=O)Nc2ccc(Cl)c(C(=O)OC(C)C)c2)SCCO1,IIIB,-,AA5,cytopathic effect / XTT,-,0.53 µM
O=C(O)P(=O)(O)O,LAV-1,-,PBMC(PHA STIM.) + PBMC,plaque count,-,22 µM
Fc1cccc(F)c1C1SCc2nc3ccccc3n21,UC781-R (RT-Y181C),RT-Y181C,CEM + CEM-SS,cytopathic effect / XTT,-,>69 µM
Cc1cc(S(N)(=O)=O)ccc1NC(=O)COc1ccc(Cl)cc1C(=O)c1cc(Cl)cc(C#N)c1,NNRTI-resistant (RT V106I P236L),RT-V106I P236L,MAGI,β-galactosidase,-,0.007 µM
O=C(CC1(O)C(=O)Nc2ccccc21)c1ccccc1Cl,IIIB,-,C8166,cytopathic effect / syncytia,-,164 µM
CNCc1ccc2c(c1)[C@H](NC(=O)C(=O)Nc1ccc(Cl)c(F)c1)[C@@H](CN=C(N)N)[C@@H]2CCCO,-,-,Cf2Th-CD4/CCR5,luciferase / entry,-,>100 µM
C[C@H](Cn1cnc2c(N)ncnc21)OCP(=O)(O)O,UG-92-024 (subtype D),-,PBMCs,p24 / ELISA / antigen,4 d,3.9 µM
CCCc1cc(=O)oc2c3c(c4c(c12)OC(C)(C)C=C4)O[C@H](C)[C@@H](C)[C@@H]3O,IIIB,-,Macrophage,cytopathic effect / XTT,-,0.05 µM
Cc1cn([C@H]2C[C@H](N=[N+]=[N-])[C@@H](CO)O2)c(=O)[nH]c1=O,-,-,U1,p24,-,>0.1 µM
COc1ccc(CN[C@@H](C(=O)N[C@H]2c3ccccc3C[C@H]2O)[C@H](O)[C@H](Cc2ccccc2)NC(=O)[C@@H](NC(=O)OCc2ccccc2)C(C)(C)C)cc1,D747,-,Primary monocytes + Monocyte,p24,-,0.071 µM
Cc1cn([C@H]2C[C@H](N=[N+]=[N-])[C@@H](CO)O2)c(=O)[nH]c1=O,-,-,CD4+HELA + HeLa,p24,-,0.16 µM
Cc1cccc(C(=O)CC2(O)C(=O)Nc3ccc(Br)cc32)c1,-,K103N,C8166,p24 / ELISA,-,>200 µM
Cc1ccnc2c1NC(=O)c1cccnc1N2C1CC1,IIIB,-,CEMx174 + CEM,cytopathic effect / XTT,-,0.1 µM
CC(C)=CCN1Cc2cccc3[nH]c(=S)n(c23)C[C@@H]1C,IIIB,-,AA5,cytopathic effect / XTT,-,0.1 µM
Cc1occc1C(=S)Nc1ccc(Cl)c(/C=N/OC(C)(C)C)c1,BaL,-,MAC,cytopathic effect / XTT,-,0.2 µM
Cc1ccnc2c1NC(=O)c1cccnc1N2C1CC1,IIIB,-,AA5,cytopathic effect / XTT,-,0.07 µM
Cc1cn([C@H]2C[C@H](N=[N+]=[N-])[C@@H](CO)O2)c(=O)[nH]c1=O,BaL,-,Macrophage,p24 / RT activity,-,0.015 µM
C/C=C/CSc1cc(NC(=S)c2ccsc2C)ccc1Cl,NL4-3 (RT V179D),RT-V179D,CEM + CEM-SS,cytopathic effect / XTT,-,0.3 µM
CCc1c(C(=O)c2cc(C)cc(C)c2)n(CC2CC=CC2)c(=O)[nH]c1=O,TEKI,-,PBMC,cytopathic effect / XTT,clinical isolate,0.001 µM
CCOC(=O)[C@H](C)N[P@](=O)(CO[C@@H]1C=C(F)[C@H](n2cnc3c(N)ncnc32)O1)Oc1ccccc1,B940374 (subtype B),-,PBMCs,p24 / ELISA / antigen,4 d,0.03 µM

A second listing of 4 rows from above:

COc1cccc(C(=O)CC2(O)C(=O)Nc3ccc(Cl)cc32)c1 ; strain: IIIB ; cells: C8166 ; read by: cytopathic effect / syncytia ; result: 50.11 µM
Cc1cn([C@H]2C[C@H](N=[N+]=[N-])[C@@H](CO)O2)c(=O)[nH]c1=O ; strain: BaL ; cells: Macrophage ; read by: p24 / RT activity ; result: 0.015 µM
Cc1cn([C@H]2C[C@H](N=[N+]=[N-])[C@@H](CO)O2)c(=O)[nH]c1=O ; cells: CD4+HELA + HeLa ; read by: p24 ; result: 0.16 µM
S=C(NCCc1cccs1)Nc1ccc(Br)cn1 ; strain: H112-2 Clinical isolate ; cells: HT4 + HeLa ; read by: plaque count ; result: 0.0006 µM